Laboratory results: PubChem BioAssay AID1259414 (Drosophila RNAi Screening Center, 2018)
The screen tested about 24,000 reagents; below is an unselected part of those with a known target gene and a result. Of all reagents, about 1,210 (5%) are marked active. 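Inactive calls also include excluded dsRNAs with several or no targets, genes unexpressed in JW18, and well A1, regardless of score.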 A number with no mark means an inactive call. Reagents against one gene are numbered here. A plus sign joins genes that one reagent is predicted to hit.

- Test: 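Fly genes that alter Wolbachia amount inside host cells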 (primary screen)
- Cells: Drosophila JW18 cells infected with Wolbachia
- Knock-down reagent: long dsRNA against Drosophila genes, 0.25 µg dsRNA per well of a 384-well plate
- Time to read-out: 5 days
- Conditions: cells persistently infected with Wolbachia before knock-down; no added drug
- Measurement: 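Imaged fluorescence in situ signal for Wolbachia 23S rRNA per DAPI-counted host cell, given as a robust z-score within each plate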
- Direction: Wolbachia per cell robust z: higher = more Wolbachia per host cell than the plate typical
- Rule for the call: 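Active if absolute robust z reaches 1.5 in two or more of three replicates, leaving out multi- or no-target dsRNAs, genes unexpressed in JW18 and A1 wells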

no.	gene	reagent no.	Wolbachia per cell robust z, rep 1	Wolbachia per cell robust z, rep 2	Wolbachia per cell robust z, rep 3
1	CG33752 (GeneID 3771860)	1	0.302	-1.39	1.05
2	fog (GeneID 33148)	1	-1.98	0.62	0.418
3	RunxA (GeneID 4379817)	1	-0.953	-1.42	-3.41
4	RunxA (GeneID 4379817)	2	-3.23	-0.179	-0.272
5	RunxA (GeneID 4379817)	3	0.605	0.245	-0.0101
6	RunxA (GeneID 4379817)	4	-0.0131	1.36	-0.183
7	RunxA (GeneID 4379817)	5	1.16	-0.101	0.499
8	vex (GeneID 32033)	1	0.783	0.715	0.579
9	vex (GeneID 32033)	2	0.531	0.686	-0.355
10	vex (GeneID 32033)	3	1.02	0.832	1.11
11	vex (GeneID 32033)	4	1.22	-0.158	0.126
12	mys (GeneID 44885)	1	0.805	0.425	0.639
13	mys (GeneID 44885)	2	-0.0227	0.925	2.1
14	THADA (GeneID 33001)	1	0.567	1.57	-0.00108
15	THADA (GeneID 33001)	2	-0.222	0.155	0.362
16	iav (GeneID 31621)	1	-0.0556	-0.732	-1.03
17	iav (GeneID 31621)	2	0.342	1.34	-1.5
18	CG42585 + CG31835	1	0.467	0.54	1.66
19	eIF2gamma + Su(var)3-9	1	1.69 (active)	1.18	2.13
20	eIF2gamma + Su(var)3-9	2	0.477	1.47	-0.913
21	eIF2gamma + Su(var)3-9	3	0.728 (active)	1.55	2.21
22	rdog (GeneID 43450)	1	1.23	0.294	-8.42
23	rdog (GeneID 43450)	2	-2.85	-1.17	-0.791
24	CG7322 (GeneID 32880)	1	-0.669	-0.43	-1.09
25	CG7322 (GeneID 32880)	2	-2.35	-1.06	0.0822
26	Dsor1 (GeneID 31872)	1	-1.03	1.4	-0.511
27	Dsor1 (GeneID 31872)	2	0.527	0.124	-0.106
28	CG13392 (GeneID 34157)	1	-2.05	-0.666	-0.56
29	CG31368 (GeneID 41437)	1	0.806	1.54	0.0619
30	CG31368 (GeneID 41437)	2	-2.99 (active)	-0.809	-7.81
31	Rab6 (GeneID 34636)	1	-1.27	-0.25	-0.362
32	Rab6 (GeneID 34636)	2	0.0147	-0.0198	-1.98
33	rib (GeneID 44855)	1	-0.192	-0.178	-1.15
34	E(spl)m3-HLH (GeneID 43156)	1	1.11	0.856	0.825
35	E(spl)m3-HLH (GeneID 43156)	2	-0.467	0.877	0.401

Part of the list above in another layout.
{"gene":"THADA (GeneID 33001)","reagent no.":2,"Wolbachia per cell robust z, rep 1":-0.222,"Wolbachia per cell robust z, rep 2":0.155,"Wolbachia per cell robust z, rep 3":0.362}
{"gene":"iav (GeneID 31621)","reagent no.":1,"Wolbachia per cell robust z, rep 1":-0.0556,"Wolbachia per cell robust z, rep 2":-0.732,"Wolbachia per cell robust z, rep 3":-1.03}
{"gene":"iav (GeneID 31621)","reagent no.":2,"Wolbachia per cell robust z, rep 1":0.342,"Wolbachia per cell robust z, rep 2":1.34,"Wolbachia per cell robust z, rep 3":-1.5}
{"gene":"CG42585 + CG31835","reagent no.":1,"Wolbachia per cell robust z, rep 1":0.467,"Wolbachia per cell robust z, rep 2":0.54,"Wolbachia per cell robust z, rep 3":1.66}
{"gene":"eIF2gamma + Su(var)3-9","reagent no.":1,"Wolbachia per cell robust z, rep 1":"1.69 (active)","Wolbachia per cell robust z, rep 2":1.18,"Wolbachia per cell robust z, rep 3":2.13}
{"gene":"eIF2gamma + Su(var)3-9","reagent no.":2,"Wolbachia per cell robust z, rep 1":0.477,"Wolbachia per cell robust z, rep 2":1.47,"Wolbachia per cell robust z, rep 3":-0.913}
{"gene":"eIF2gamma + Su(var)3-9","reagent no.":3,"Wolbachia per cell robust z, rep 1":"0.728 (active)","Wolbachia per cell robust z, rep 2":1.55,"Wolbachia per cell robust z, rep 3":2.21}
{"gene":"rdog (GeneID 43450)","reagent no.":1,"Wolbachia per cell robust z, rep 1":1.23,"Wolbachia per cell robust z, rep 2":0.294,"Wolbachia per cell robust z, rep 3":-8.42}
{"gene":"rdog (GeneID 43450)","reagent no.":2,"Wolbachia per cell robust z, rep 1":-2.85,"Wolbachia per cell robust z, rep 2":-1.17,"Wolbachia per cell robust z, rep 3":-0.791}

The results go on:
no.	gene	reagent no.	Wolbachia per cell robust z, rep 1	Wolbachia per cell robust z, rep 2	Wolbachia per cell robust z, rep 3
36	velo (GeneID 38748)	1	3.17 (active)	3.53	4.66
37	velo (GeneID 38748)	2	1.37	-3.23	1.8
38	velo (GeneID 38748)	3	1.43 (active)	1.84	1.54
39	CG3625 (GeneID 33198)	1	0.83	0.307	0.695
40	Obp18a (GeneID 32897)	1	0.935	0.392	0.0491
41	Gas8 (GeneID 31321)	1	-0.256	-1.32	-0.349
42	Gas8 (GeneID 31321)	2	-0.582	-0.946	-0.495
43	Larp4B (GeneID 38399)	1	0.124	1.17	-0.38
44	Larp4B (GeneID 38399)	2	-0.33	0.164	1.13
45	LanB1 (GeneID 34068)	1	0.481	0.145	0.38
46	LanB1 (GeneID 34068)	2	-0.413	-0.696	-0.325
47	CG7556 (GeneID 32902)	1	2.13	-1.32	1.28
48	CG7556 (GeneID 32902)	2	1.14	0.678	1.66
49	CG3769 (GeneID 34262)	1	-0.36	-0.968	-0.264
50	su(sable) (GeneID 31012)	1	1.15	-0.92	0.784
51	Bcat (GeneID 32297)	1	-1.51 (active)	-0.117	-3.8
52	Bcat (GeneID 32297)	2	-1.12	-0.573	-0.704
53	CG11180 (GeneID 37330)	1	0.923	1.17	-1.2
54	CG11180 (GeneID 37330)	2	1.28	0.284	0.891
55	CG4766 (GeneID 31533)	1	1.49	-1.56	-3.21
56	HPS1 (GeneID 36656)	1	0.461	-0.258	0.363
57	CG31109 (GeneID 43001)	1	0.124	-0.0327	-0.363
58	Cdc50 (GeneID 32615)	1	-0.99	-2.28	0.469
59	Tsp42Eq (GeneID 35628)	1	-2.65	1	-0.224
60	CG14483 (GeneID 36995)	1	-0.484	-5.42	-1.52
61	CG12609 (GeneID 32862)	1	1.32	-0.4	0.107
62	CG10560 (GeneID 43065)	1	-0.0468	0.655	-1.77
63	CG4815 (GeneID 43360)	1	2.3	-0.236	-0.477
64	Had1 (GeneID 32592)	1	0.198	-0.465	-0.0476
65	CG34393 (GeneID 33534)	1	0.874	-0.103	-0.33
66	CG34393 (GeneID 33534)	2	-0.533	-0.2	0.681
67	CG34393 (GeneID 33534)	3	-1.51	0.347	-0.917
68	CG34393 (GeneID 33534)	4	-7.5	0.063	-8.35
